Article PMC11407943, “Cdc14 phosphatases use an intramolecular pseudosubstrate motif to stimulate and regulate catalysis” (The Journal of Biological Chemistry, 2024)
Positions count from the first letter of the chain named. Names may count otherwise.

B1: CaCdc14^S411A: C. albicans Cdc14 with Ala substitution in the Cdk site, strain HCAL133 (protein, UniProt Q59NH8 1-542, looked up, variant S411A)
Tyrosine-protein phosphatase …: MHSSSVHVPLIEFLKNRIYLGAYDHHKRDTEDLAYFTVEDALPYNAFYMDFGPLNIGHLYRFAVLLHKKLNEDSTQGKGLVIYSSTSPKERANLACLLCCYMILLQNWAPHQVLQPIAQITPPLQAFRDAGYSSADYEITIQDVVYAMWRAKERGMIDLAKFDLDEYEQYERVDQGDFNVISKDFIAFASPQQSKRGGLNEPFQKVLEYFVENNVQLVVRLNSHLYDAKEFTKRNIKHIDMIFDDGTCPTLEYVQKFIGAAECIINKGGKIAVHCKAGLGRTGCLIGAHLIYTHGFTANECIAYMRMIRPGMVVGPQQHWLYLHHDDFRSWRHTMIVDNRPDPLIGNLFPLCSYEDYKQRLKEAKRKERLQLQQQLTSPLADSSVINTPIRRRKVSGALASKIQTVVPIEAPGQPRKYFEDSEDIDEVEMVNNSDDENTMQDIIQSSPARYDSVTPKTKDNSDWRVLRSISTNNVSSQQSIHIIKTTTTKTVNETLSSPPGTSPTNVLRVSKARSKNRIASGNSQTSRAHSGGVRKLSGKKH
modifications: 3xHA tag
B2: Cdc14: Cdc14 in micafungin-resistant C. albicans cdc14^S411A and cdc14^S411E colonies (protein, UniProt Q59NH8 1-542, looked up)
Tyrosine-protein phosphatase …: B1 Tyrosine-protein phosphatase … with A411S
modifications: 3xHA tag

System: C. albicans strains
Assay: Immunoblotting of Cdc14-3xHA expression level

Molecule	protein expression level compared to WT CaCdc14, CaCdc14^S411E and CaCdc14^hm (log phase YPD cultures, anti-HA immunoblot normalized to PSTAIR, three independent experiments, not statistically significant)	Cdc14 expression level in micafungin-resistant strains (relative to the original micafungin-sensitive isolates)
B1	consistently lower	–
B2	–	consistent and significant increase
